Results deposited as PubChem BioAssay AID1259414 (Drosophila RNAi Screening Center, 2018).
The deposit covers about 24,000 reagents; below is an unselected part of those that have a named target and a result. Over the whole deposit, about 1,210 (5%) got an active call. 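Inactive calls also include excluded dsRNAs with several or no targets, genes unexpressed in JW18, and well A1, regardless of score.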 The numbers tell different reagents against one gene apart. A plus sign joins genes that one reagent is predicted to hit.

Test: 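Fly genes that alter Wolbachia amount inside host cells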 (primary screen)
Cells: Drosophila JW18 cells infected with Wolbachia
Reagents: long dsRNA against Drosophila genes, 0.25 µg dsRNA per well of a 384-well plate
Timing: 5 days
Conditions: cells persistently infected with Wolbachia before knock-down; no added drug
Measured: 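Imaged fluorescence in situ signal for Wolbachia 23S rRNA per DAPI-counted host cell, given as a robust z-score within each plate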
Direction: Wolbachia per cell robust z: higher = more Wolbachia per host cell than the plate typical
Active means: 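Active if absolute robust z reaches 1.5 in two or more of three replicates, leaving out multi- or no-target dsRNAs, genes unexpressed in JW18 and A1 wells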

| gene knocked down | reagent | Wolbachia per cell robust z, rep 1 | Wolbachia per cell robust z, rep 2 | Wolbachia per cell robust z, rep 3 | outcome |
| --- | --- | --- | --- | --- | --- |
| CG10232 (GeneID 42800) | 1 | 0.953 | -1.22 | 0.598 | inactive |
| Non2 (GeneID 38341) | 1 | -0.627 | -2.14 | 1.35 | inactive |
| Non2 (GeneID 38341) | 2 | -0.153 | 0.761 | -0.18 | inactive |
| Cyp6a18 (GeneID 43304) | 1 | 0.00552 | 1.16 | 0.353 | inactive |
| Or67b (GeneID 39120) | 1 | 0.584 | -0.198 | -0.136 | inactive |
| snoRNA:Psi28S-2566 (GeneID 3771936) | 1 | 1.24 | -0.566 | 0.0523 | inactive |
| CG44433 + CG44434 + CG44435 | 1 | -0.792 | 1.83 | 0.723 | inactive |
| Nedd4 (GeneID 39958) | 1 | -0.839 | -0.0866 | -0.42 | inactive |
| Nedd4 (GeneID 39958) | 2 | 0.42 | -1.66 | -0.549 | inactive |
| Nedd4 (GeneID 39958) | 3 | -0.966 | 1.07 | 0.694 | inactive |
| SmydA-7 (GeneID 36916) | 1 | 0.128 | -1.12 | -0.0607 | inactive |
| H15 (GeneID 33769) | 1 | 0.231 | 1.33 | -1.13 | inactive |
| H15 (GeneID 33769) | 2 | -0.0251 | 0.836 | 1.14 | inactive |
| H15 (GeneID 33769) | 3 | -1.22 | -1.52 | 0.225 | inactive |
| CG14823 (GeneID 38772) | 1 | -0.288 | 0.471 | 0.6 | inactive |
| CR13656 (GeneID 8674041) | 1 | 0.797 | 1.46 | 0.206 | inactive |
| CR13656 (GeneID 8674041) | 2 | 0.811 | -2.04 | -4.91 | inactive |
| frj (GeneID 33900) | 1 | -0.477 | 1.1 | -2.31 | inactive |
| Jon99Fii + Jon99Ciii + Jon99Fi + 1 more | 1 | 0.461 | 1.63 | 0.41 | inactive |
| Idgf4 (GeneID 31926) | 1 | 0.936 | -1.06 | 0.762 | inactive |
| Idgf4 (GeneID 31926) | 2 | -3.22 | -0.887 | 0.0907 | inactive |
| CG32579 (GeneID 318096) | 1 | 1.55 | 1.13 | 0.493 | inactive |
| bsf (GeneID 35100) | 1 | 0.729 | -0.0679 | 0.806 | inactive |
| CG33124 (GeneID 318891) | 1 | 0.292 | -0.0851 | 0.152 | inactive |
| CG6805 (GeneID 36911) | 1 | -1.71 | 1.07 | 0.179 | inactive |
| CG6805 (GeneID 36911) | 2 | 0.61 | -0.0525 | -0.57 | inactive |
| CG6805 (GeneID 36911) | 3 | 0.797 | 0.477 | 0.0689 | inactive |
| bnl (GeneID 42356) | 1 | 0.624 | -0.229 | -0.741 | inactive |
| bnl (GeneID 42356) | 2 | 0.975 | 0.924 | 0.706 | inactive |
| bnl (GeneID 42356) | 3 | -1.26 | -0.0461 | -0.172 | inactive |
| Hsp70Bc (GeneID 48583) | 1 | 0.112 | -0.776 | -0.579 | inactive |
| Traf4 (GeneID 33638) | 1 | -0.179 | 0.925 | -4 | inactive |
| Traf4 (GeneID 33638) | 2 | -2.57 | -3.89 | -0.444 | active |
| lbm (GeneID 35623) | 1 | -0.131 | 1.31 | 2.47 | inactive |
| Ndc80 (GeneID 32316) | 1 | 0.607 | -3.08 | -0.0463 | inactive |
| Ndc80 (GeneID 32316) | 2 | -2.48 | -0.0605 | -0.452 | inactive |
| Jon25Bi (GeneID 33708) | 1 | -0.0341 | -0.274 | -0.246 | inactive |
| Jon25Bi (GeneID 33708) | 2 | -2.09 | 0.312 | -1.2 | inactive |
| Cpr5C (GeneID 31510) | 1 | 0.944 | 0.566 | 0.183 | inactive |
| Jheh2 (GeneID 37181) | 1 | -1.53 | 0.0786 | -0.79 | inactive |
| Jheh2 (GeneID 37181) | 2 | -0.396 | -1.5 | -0.858 | inactive |
| CG12446 (GeneID 33147) | 1 | 0.704 | 0.282 | 0.302 | inactive |
| CG14961 (GeneID 38414) | 1 | -1.07 | -0.0334 | -0.258 | inactive |
| CG1208 (GeneID 40727) | 1 | 0.403 | -0.242 | 0.663 | inactive |
| bdg (GeneID 36747) | 1 | -2.57 | -3.28 | -5.6 | inactive |
| CG18605 (GeneID 37189) | 1 | -1.07 | 0.23 | 1.31 | inactive |
| CG18605 (GeneID 37189) | 2 | -0.133 | -0.0951 | -0.335 | inactive |
| CG8952 (GeneID 32525) | 1 | -2.43 | -6.66 | 0.656 | active |
| mop (GeneID 39610) | 1 | 0.533 | 1.04 | 0.984 | inactive |
| mop (GeneID 39610) | 2 | 1.96 | 1.86 | 1.64 | active |

Next part (4 carried over from the part before).
| gene knocked down | reagent | Wolbachia per cell robust z, rep 1 | Wolbachia per cell robust z, rep 2 | Wolbachia per cell robust z, rep 3 | outcome |
| --- | --- | --- | --- | --- | --- |
| CG18605 (GeneID 37189) | 2 | -0.133 | -0.0951 | -0.335 | inactive |
| CG8952 (GeneID 32525) | 1 | -2.43 | -6.66 | 0.656 | active |
| mop (GeneID 39610) | 1 | 0.533 | 1.04 | 0.984 | inactive |
| mop (GeneID 39610) | 2 | 1.96 | 1.86 | 1.64 | active |
| CG11672 (GeneID 40977) | 1 | -1.32 | 0.369 | -0.186 | inactive |
| Snmp2 (GeneID 38868) | 1 | -0.0515 | -0.955 | -1.29 | inactive |
| Snmp2 (GeneID 38868) | 2 | 0.381 | -0.554 | -1.44 | inactive |
| CR18166 (GeneID 8673968) | 1 | -0.119 | -1.49 | -0.666 | inactive |
| CR18166 (GeneID 8673968) | 2 | -0.284 | -1.43 | 0.578 | inactive |
| CR18166 (GeneID 8673968) | 3 | -1.48 | 0.359 | 0.552 | inactive |
| CG32305 (GeneID 317967) | 1 | 0.622 | 0.16 | -0.24 | inactive |
| CG32305 (GeneID 317967) | 2 | -1.13 | -1.22 | -0.0128 | inactive |
| TpnC25D (GeneID 33752) | 1 | 0.247 | 0.853 | 0.207 | inactive |
| TpnC25D (GeneID 33752) | 2 | 0.594 | 0.605 | -1.61 | inactive |
| CG3349 (GeneID 39623) | 1 | -1.56 | -0.673 | -0.374 | inactive |
| CG8173 (GeneID 32753) | 1 | -0.621 | -1.17 | -0.673 | inactive |
| AgmNAT (GeneID 31512) | 1 | -0.381 | 1.18 | 0.0987 | inactive |
| Bfc (GeneID 38138) | 1 | -0.409 | 0.119 | -1.08 | inactive |
| eEFSec (GeneID 37444) | 1 | 1.06 | -5.43 | -2.63 | active |
| CG14110 (GeneID 39500) | 1 | -0.495 | 0.688 | -0.114 | inactive |
| CG14868 (GeneID 41875) | 1 | 0.119 | -0.0395 | -1.05 | inactive |
| CG14868 (GeneID 41875) | 2 | -0.142 | 2.81 | 2.03 | active |
| Pgant7 (GeneID 32836) | 1 | 0.0739 | -9.5 | 1.02 | inactive |
| CG15876 (GeneID 38573) | 1 | -2.07 | -0.846 | -7.16 | inactive |
| CG15876 (GeneID 38573) | 2 | -0.509 | -0.398 | 0.358 | inactive |
| Eip78C (GeneID 40345) | 1 | -0.0217 | 0.609 | 0.553 | inactive |
| Eip78C (GeneID 40345) | 2 | -0.0326 | 0.996 | -1.88 | inactive |
| CTCF (GeneID 38817) | 1 | 0.262 | -0.187 | -7.89 | inactive |
| CTCF (GeneID 38817) | 2 | -0.00431 | 0.309 | -1.54 | inactive |
| MFS9 (GeneID 42426) | 1 | 0.106 | 0.328 | -2.63 | inactive |
| Ir52c (GeneID 246630) | 1 | -0.636 | -0.217 | -0.00843 | inactive |
| Ir52c (GeneID 246630) | 2 | 0.893 | -0.382 | -10.6 | inactive |
| CG7294 (GeneID 34470) | 1 | 0.0409 | -4.28 | -0.285 | inactive |
| CG7294 (GeneID 34470) | 2 | -11.4 | -8.1 | -1.81 | inactive |
| lncRNA:CR9162 (GeneID 12798573) | 1 | -6.21 | 0.253 | -5.43 | inactive |
| CG14341 (GeneID 33301) | 1 | 0.667 | 0.174 | -5.87 | inactive |
| CG33658 (GeneID 3772524) | 1 | -2.31 | -2.88 | -2.67 | inactive |
| CG30430 (GeneID 246610) | 1 | -1.69 | -1.3 | -1.63 | inactive |
| Arl1 (GeneID 39745) | 1 | 0.504 | -0.929 | 0.0839 | inactive |
| CG10214 (GeneID 42811) | 1 | -6.65 | 0.395 | -0.301 | inactive |
| RhoGAP19D (GeneID 33048) | 1 | 1.05 | 1.94 | 1.38 | inactive |
| RhoGAP19D (GeneID 33048) | 2 | 0.875 | 0.968 | -5.34 | inactive |
